Anti-infective test results gathered from many reports (values: NIAID ChemDB through PubChem).

Shared fields: tests in culture; measure: EC50

Lines come from different laboratories, so protocols vary.

smiles,cell line,strain,read by,species,result
CCNCCCCNCCCCNCCCCNC/C=C/CNCCCCNCCCCNCCCCNCC,,,,Encephalitozoon cuniculi,8.2 µM
CSc1nsc(-c2ccc(Cl)cc2Cl)c1C#N,L929,Encephalomyocarditis virus,plaque count,Encephalomyocarditis virus,>8 µM
CSc1nsc(-c2ccc(OCc3ccccc3)cc2)c1C#N,L929,,plaque count,Encephalomyocarditis virus,20 µM
CCOC(=O)c1ccc(OCCCCOc2ccc(-c3snc(SC)c3C#N)cc2)cc1,HEP-2/L-929/VERO,,plaque count,Encephalomyocarditis virus,>2 µM
C(CNCC1CC1)CNCC1CCCC(CNCCCNCC2CC2)C1,,,,Encephalitozoon cuniculi,<100 µM
CSc1nsc(-c2ccc(OCCc3ccccc3)cc2)c1C#N,HEP-2/L-929/VERO,,plaque count,Encephalomyocarditis virus,10 µM
N#Cc1c(-c2ccccc2)nsc1Cl,L929,Encephalomyocarditis virus,plaque count,Encephalomyocarditis virus,>20 µM
C(CNCC1CCC1)CNCC1CCCC(CNCCCNCC2CCC2)C1,,,,Encephalitozoon cuniculi,<250 µM
CSc1nsc(-c2ccc(OCCCCOc3ccc(C#N)cc3)cc2)c1C#N,HEP-2/L-929/VERO,,plaque count,Encephalomyocarditis virus,>2 µM
O=C1CCC(N2C(=O)c3ccccc3C2=O)C(=O)N1,MRC-5,,,Encephalitozoon cuniculi,>10 µg/mL
COc1ccc(-c2snc(SC)c2C#N)cc1,L929,,plaque count,Encephalomyocarditis virus,>10 µM
CCNCCCCNCCCCNCCCCNCCCCNCCCCNCCCCNCCCCNCCCCNCCCCNCCCCNCCCCNCCCCNCCCCNCC,,,,Encephalitozoon cuniculi,0.54 µM
CSc1nsc(-c2ccc(OCCOc3ccccc3)cc2)c1C#N,HEP-2/L-929/VERO,,plaque count,Encephalomyocarditis virus,>20 µM
CCNCCCCNCCCCNCCCCNCCCCN(CC)CCCCNCCCCNCCCCNCCCCNCC,,,,Encephalitozoon cuniculi,30.3 µM
CSc1nsc(-c2ccc(OCCOc3ccc(C#N)cc3)cc2)c1C#N,HEP-2/L-929/VERO,,plaque count,Encephalomyocarditis virus,>2 µM
CCNCCCCNCCCCNCCCCNC/C=C\CNCCCCNCCCCNCCCCNCC,,,,Encephalitozoon cuniculi,1.9 µM
CSc1nsc(-c2ccc(OS(=O)(=O)c3ccc(C)cc3)cc2)c1C#N,L929,,plaque count,Encephalomyocarditis virus,>25 µM
N=C(N)c1ccc(CNCCCCCNCc2ccc(C(=N)N)cc2)cc1,,,,Encephalitozoon cuniculi,148 µM
c1ccc(CNCCCNCC2CCCC(CNCCCNCc3ccccc3)C2)cc1,,,,Encephalitozoon cuniculi,<100 µM
CSc1nsc(-c2ccc(Cl)cc2)c1C#N,L929,Encephalomyocarditis virus,plaque count,Encephalomyocarditis virus,>5 µM
CC[C@@H](C)CNCCCNCCCCCCCNCCCNC[C@@H](C)CC,,,,Encephalitozoon cuniculi,>50 µM
CSc1nsc(-c2ccc3ccccc3c2)c1C#N,L929,Encephalomyocarditis virus,plaque count,Encephalomyocarditis virus,>20 µM
CCNCCCCNCCCCNCCCCNCCCCNC(=O)CCN,,,,Encephalitozoon cuniculi,58.5 µM

Repeating the first 2 entries:

CCNCCCCNCCCCNCCCCNC/C=C/CNCCCCNCCCCNCCCCNCC ; species: Encephalitozoon cuniculi ; result: 8.2 µM
CSc1nsc(-c2ccc(Cl)cc2Cl)c1C#N ; cell line: L929 ; strain: Encephalomyocarditis virus ; read by: plaque count ; species: Encephalomyocarditis virus ; result: >8 µM

ECn is the concentration giving n% inhibition of infection, replication or growth. An empty or dashed field is not shown.